Amino acid sequences for entries named in this document (tags omitted). Residues count along the entry.
UniProt P30926, 22-498 limits assumed: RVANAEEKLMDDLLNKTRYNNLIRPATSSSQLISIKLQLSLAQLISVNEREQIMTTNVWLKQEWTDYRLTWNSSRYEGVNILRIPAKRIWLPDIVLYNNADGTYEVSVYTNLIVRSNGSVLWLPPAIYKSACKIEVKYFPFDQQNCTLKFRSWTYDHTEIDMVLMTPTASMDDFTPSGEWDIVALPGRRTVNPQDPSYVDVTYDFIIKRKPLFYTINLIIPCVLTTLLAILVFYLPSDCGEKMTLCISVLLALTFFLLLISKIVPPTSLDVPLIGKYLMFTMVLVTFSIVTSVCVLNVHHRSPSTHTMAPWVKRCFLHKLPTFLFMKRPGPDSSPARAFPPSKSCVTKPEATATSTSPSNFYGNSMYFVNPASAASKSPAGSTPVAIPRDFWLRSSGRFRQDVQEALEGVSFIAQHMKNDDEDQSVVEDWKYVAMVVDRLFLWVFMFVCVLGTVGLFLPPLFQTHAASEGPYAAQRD
UniProt P32297, 32-505 limits assumed: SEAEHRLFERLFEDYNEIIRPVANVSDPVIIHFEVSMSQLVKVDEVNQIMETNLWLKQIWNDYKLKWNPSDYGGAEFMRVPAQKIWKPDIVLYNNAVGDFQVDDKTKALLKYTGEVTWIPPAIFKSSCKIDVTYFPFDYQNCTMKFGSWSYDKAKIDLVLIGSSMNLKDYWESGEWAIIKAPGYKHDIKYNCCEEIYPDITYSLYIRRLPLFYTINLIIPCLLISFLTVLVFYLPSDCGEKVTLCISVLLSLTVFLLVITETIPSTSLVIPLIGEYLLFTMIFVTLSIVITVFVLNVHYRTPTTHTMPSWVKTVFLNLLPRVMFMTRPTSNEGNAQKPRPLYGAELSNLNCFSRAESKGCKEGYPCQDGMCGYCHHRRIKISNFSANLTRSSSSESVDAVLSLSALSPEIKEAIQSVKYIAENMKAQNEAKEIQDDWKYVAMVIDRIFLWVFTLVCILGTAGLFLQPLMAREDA
UniProt P17787, 26-502 limits assumed: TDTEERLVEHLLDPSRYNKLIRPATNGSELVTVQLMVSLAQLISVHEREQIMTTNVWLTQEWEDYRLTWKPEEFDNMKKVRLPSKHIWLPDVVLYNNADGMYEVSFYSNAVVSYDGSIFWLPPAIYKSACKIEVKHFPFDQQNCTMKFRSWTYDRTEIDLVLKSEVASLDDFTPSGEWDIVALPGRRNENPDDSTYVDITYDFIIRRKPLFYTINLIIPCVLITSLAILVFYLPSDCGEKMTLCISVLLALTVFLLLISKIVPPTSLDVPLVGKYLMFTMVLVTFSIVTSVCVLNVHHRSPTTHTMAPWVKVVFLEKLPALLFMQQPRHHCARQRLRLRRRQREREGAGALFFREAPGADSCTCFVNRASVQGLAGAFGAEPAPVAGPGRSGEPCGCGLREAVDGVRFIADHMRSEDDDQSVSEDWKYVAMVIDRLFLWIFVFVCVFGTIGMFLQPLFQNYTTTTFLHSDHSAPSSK
UniProt P43681, 29-627 limits assumed: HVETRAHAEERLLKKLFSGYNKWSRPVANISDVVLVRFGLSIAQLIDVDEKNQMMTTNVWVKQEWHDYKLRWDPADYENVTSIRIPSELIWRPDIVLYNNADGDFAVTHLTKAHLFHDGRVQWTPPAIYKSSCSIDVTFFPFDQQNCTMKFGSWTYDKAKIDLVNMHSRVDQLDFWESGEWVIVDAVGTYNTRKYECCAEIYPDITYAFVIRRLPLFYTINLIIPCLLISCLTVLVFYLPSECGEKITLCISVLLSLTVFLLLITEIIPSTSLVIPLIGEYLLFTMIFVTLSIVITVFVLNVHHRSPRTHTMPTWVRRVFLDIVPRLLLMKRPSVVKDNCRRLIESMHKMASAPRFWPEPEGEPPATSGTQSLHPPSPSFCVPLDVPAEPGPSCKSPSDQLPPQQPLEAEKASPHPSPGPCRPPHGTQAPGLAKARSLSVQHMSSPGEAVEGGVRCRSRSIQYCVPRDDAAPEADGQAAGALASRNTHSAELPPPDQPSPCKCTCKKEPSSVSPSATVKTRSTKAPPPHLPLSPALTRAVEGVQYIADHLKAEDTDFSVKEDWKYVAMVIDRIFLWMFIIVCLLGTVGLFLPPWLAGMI

According to article PMC10971807 (Marine Drugs, 2024):

Columns and labels:
Conditions in all cases: 10 and 100 nM peptide; described as inactive
hα3β4 nAChR = hα3β4 nAChR (Homo sapiens, UniProt P30926+P32297)
hα4β2 nAChR = hα4β2 nAChR (Homo sapiens, UniProt P17787+P43681)
hα4β4 nAChR = hα4β4 nAChR (Homo sapiens, UniProt P30926+P43681)
hα1β1εδ nAChR = hα1β1εδ nAChR (Homo sapiens, UniProt P02708+Q04844+Q07001); experiment: Two-electrode voltage clamp, inhibition of ACh-evoked currents in X. laevis oocytes expressing hα1β1εδ nAChRs
hα1β1δγ nAChR = hα1β1δγ nAChR (Homo sapiens, UniProt P02708+P07510+Q07001); experiment: Two-electrode voltage clamp, inhibition of ACh-evoked currents in X. laevis oocytes expressing hα1β1δγ nAChRs

CC(C)C[C@@H]1NC(=O)[C@H](CCC(=O)O)NC(=O)[C@@H]2CCCN2C(=O)[C@H](Cc2c[nH]cn2)NC(=O)[C@H](CC(N)=O)NC(=O)[C@H](C(C)C)NC(=O)[C@H](CN)NC(=O)[C@@H]2CSSC[C@H](NC(=O)CN)C(=O)N[C@@H](CSSC[C@@H](C(N)=O)NC1=O)C(=O)N[C@@H](CN)C(=O)N[C@@H](Cc1c[nH]cn1)C(=O)N1CCC[C@H]1C(=O)N[C@@H](C)C(=O)N2 [PeIA[S4Dap, S9Dap]]
< 1%: Inhibition of ACh-evoked currents at hα3β4 (hα3β4 nAChR) | Inhibition of ACh-evoked currents at hα4β2 (hα4β2 nAChR) | Inhibition of ACh-evoked currents at hα4β4 (hα4β4 nAChR) | Inhibition of ACh-evoked currents at hα1β1εδ (hα1β1εδ nAChR) | Inhibition of ACh-evoked currents at hα1β1δγ (hα1β1δγ nAChR)

CC(C)C[C@@H]1NC(=O)[C@H](CCC(=O)O)NC(=O)[C@@H]2CCCN2C(=O)[C@H](Cc2c[nH]cn2)NC(=O)[C@H](CC(N)=O)NC(=O)[C@H](C(C)C)NC(=O)[C@H](CO)NC(=O)[C@@H]2CSSC[C@H](NC(=O)CN)C(=O)N[C@@H](CSSC[C@@H](C(N)=O)NC1=O)C(=O)N[C@@H](CO)C(=O)N[C@@H](Cc1c[nH]cn1)C(=O)N1CCC[C@H]1C(=O)N[C@@H](C)C(=O)N2 [PeIA]
< 1%: Inhibition of ACh-evoked currents at hα1β1εδ (hα1β1εδ nAChR) | Inhibition of ACh-evoked currents at hα1β1δγ (hα1β1δγ nAChR)
